Anti-infective test results gathered from many reports (values: NIAID ChemDB through PubChem).

All rows: toxicity to cultured cells; cells: HeLa; measure: CC50

An empty or dashed field is not shown. Conditions beyond the fields shown may differ between rows. CCn: concentration that lowers growth or viability of the cells by n%.

compound	read by	value
CC1=C(C(=O)O)C(c2ccccc2)NC(=O)N1	XTT	>100 µM
CCCCCCCCCC(C)=O	trypan blue	42 µg/mL
CCOC(=O)[C@@]1(C)CC[C@]2(C)CC[C@]3(C)C(=CC(=O)[C@@H]4[C@@]5(C)CC/C(=N\OCc6ccccc6Br)C(C)(C)[C@@H]5CC[C@]43C)[C@@H]2C1	MTT	69.71 µM
COc1cnc(-n2nccn2)c2[nH]cc(C(=O)C(=O)N3CCN(C(=O)c4ccccc4)[C@H](C)C3)c12	trypan blue	>100 µM
CCOC(=O)[C@@]1(C)CC[C@]2(C)CC[C@]3(C)C(=CC(=O)[C@@H]4[C@@]5(C)CC/C(=N\OCc6ccc(C(F)(F)F)cc6)C(C)(C)[C@@H]5CC[C@]43C)[C@@H]2C1	MTT	>100 µM
C[C@@H](NC(=O)c1nc(-c2cccc(C(F)(F)F)n2)[nH]c(=O)c1O)C1CCCCC1	luminescence	>50 µM
CC(=O)O[C@@H]1C[C@@]2(C)C3CC=C4[C@@H](C[C@H](O)[C@@H](O)C4(C)C)[C@]3(C)C(=O)C[C@]2(C)C1C(C)(O)C(=O)/C=C/C(C)(C)OC(C)=O	MTT	1.2 µM
CC1CN(C(=O)C(=O)c2c[nH]c3cccc(F)c23)CC(C)N1C(=O)c1ccccc1	XTT	200 µM
CCOC(=O)[C@@]1(C)CC[C@]2(C)CC[C@]3(C)C(=CC(=O)[C@@H]4[C@@]5(C)CC/C(=N\OCc6c(C)noc6C)C(C)(C)[C@@H]5CC[C@]43C)[C@@H]2C1	MTT	12.27 µM
COc1cccc2[nH]cc(C(=O)C(=O)N3CCN(C(=O)c4ccccc4)CC3C)c12	XTT	>300 µM
CCS(=O)(=O)c1ccc(NCc2ccc(Cl)cc2)nc1C#N	-	>10 µg/mL
Cc1csc(C(=O)CCCCOc2ccc(C(=O)O)cc2)c1	-	>314 µM
C[C@@H]1CN(C(=O)c2ccccc2)CCN1C(=O)C(=O)c1c[nH]c2cccc(F)c12	XTT	>300 µM
O=C(OCC1CCCCC1)c1nc(-c2ccccn2)[nH]c(=O)c1O	luminescence	>50 µM
COc1cccc2[nH]cc(C(=O)C(=O)N3CCN(C(=O)c4ccccc4)C[C@@H]3C)c12	XTT	>300 µM
CCOC(=O)c1ccc(OCCCCC(=O)c2cc(C)[nH]c2C)cc1	-	204 µM
C/C(=C/[C@H]1C[C@](C)(O)C2[C@@H](C[C@@]3(C)[C@@H]4CC=C5[C@@H](C[C@H](O)[C@@H](O)C5(C)C)[C@]4(C)C(=O)C[C@]23C)O1)CO	MTT	>50 µM
CCCCCC1CN(C(=O)C(=O)c2c[nH]c3cccc(F)c23)CCN1C(=O)c1ccccc1	XTT	45 µM
COc1ccc(C2SCC(=O)N2c2ccc(Cl)cc2O)c(OC)c1	absorbance	68.2 µg/mL
Fc1ccc2c(c1)CSSC2	MTT	>536.8 µM
Cc1cc(CCCCCCCOc2ccc(C3=NCCO3)cc2)on1	-	37 µM
CCCCCCCCCC(=O)O[C@@H]1[C@@H]2Oc3nc(=N)ccn3[C@@H]2O[C@@H]1CO	neutral red	0.2 µg/mL
COc1cnc(-c2cnc(N)cn2)c2[nH]cc(C(=O)C(=O)N3CCN(C(=O)c4ccccc4)[C@H](C)C3)c12	trypan blue	>100 µM
CN1C=CN(c2cccc(N3C=CN(C)C3)n2)C1.[Cl][Au].[Cl][Au]	sulforhodamine / absorbance	>30 µM
CC(NC(=O)c1c(O)c2cccnc2n(O)c1=O)c1ccccc1	-	<100 µM
CC1=C(C(=O)OCc2ccccc2)C(c2ccco2)NC(=O)N1	XTT	>100 µM
CCOC(=O)c1c(O)c2cc(C(=O)NCc3ccccc3)cnc2n(O)c1=O	-	<100 µM
CCOC(=O)[C@@]1(C)CC[C@]2(C)CC[C@]3(C)C(=CC(=O)[C@@H]4[C@@]5(C)CC/C(=N\OCc6cccc(Cl)c6)C(C)(C)[C@@H]5CC[C@]43C)[C@@H]2C1	MTT	23.41 µM
CS(=O)(=O)c1ccc(NCc2ccc(Br)cc2)nc1	-	>10 µg/mL
CCOC(=O)[C@@]1(C)CC[C@]2(C)CC[C@]3(C)C(=CC(=O)[C@@H]4[C@@]5(C)CC/C(=N\OCc6ccc(C(=O)OC)o6)C(C)(C)[C@@H]5CC[C@]43C)[C@@H]2C1	MTT	20.53 µM
Cc1cccnc1-c1nc(C(=O)OCC2CCCCC2)c(O)c(=O)[nH]1	luminescence	>50 µM
c1ccc(Oc2ccc3c(c2)CSSC3)cc1	MTT	36 µM
COc1cnc(C(N)=O)c2[nH]cc(C(=O)C(=O)N3CCN(C(=O)c4ccccc4)CC3)c12	trypan blue	>100 µM
O=c1c(-c2ccccc2)c(O)c2cc(/C=C/c3ccccc3)cnc2n1O	-	<100 µM
CS(=O)c1ccc(Cc2ccc(S(C)(=O)=O)cn2)cc1	-	>10 µg/mL
Cc1ccc(CCCCCOc2ccc(C3=NCCO3)cc2)s1	-	>303 µM
CS(=O)(=O)c1ccc(NCCc2ccc(Cl)cc2)nc1	-	>10 µg/mL
O=C(Nc1ccc(Oc2ccccc2)nc1)c1c(O)c2cccnc2n(O)c1=O	-	<100 µM
Cc1ncnn1-c1cc(Cl)nc2c(C(=O)C(=O)N3CCN(C(=O)c4ccccc4)[C@H](C)C3)c[nH]c12	trypan blue	>100 µM
CC1=C(C(=O)O)C(c2ccc(F)cc2)NC(=O)N1	XTT	>100 µM
CCc1ccn(-c2ncc(OC)c3c(C(=O)C(=O)N4CCN(C(=O)c5ccccc5)[C@H](C)C4)c[nH]c23)n1	trypan blue	>100 µM
CCOC(=O)c1ccc(OCCCCCc2ccc(C)s2)cc1	-	301 µM
O=C(OCC1CCCCC1)c1nc(-c2ncccc2Cl)[nH]c(=O)c1O	luminescence	>50 µM
COc1cnc(-n2ncc(C)n2)c2[nH]cc(C(=O)C(=O)N3CCN(C(=O)c4ccccc4)[C@H](C)C3)c12	trypan blue	>100 µM
CCC1CN(C(=O)C(=O)c2c[nH]c3cccc(F)c23)CCN1C(=O)c1ccccc1	XTT	188 µM
COc1ccnc2[nH]cc(C(=O)C(=O)N3CCN(C(=O)c4ccccc4)C[C@H]3C)c12	XTT	>100 µM
CNC(=O)c1ccc(-c2ncc(OC)c3c(C(=O)C(=O)N4CCN(C(=O)c5ccccc5)CC4)c[nH]c23)o1	trypan blue	>100 µM
CCOC(=O)[C@@]1(C)CC[C@]2(C)CC[C@]3(C)C(=CC(=O)[C@@H]4[C@@]5(C)CC/C(=N\OCc6ccccc6C#N)C(C)(C)[C@@H]5CC[C@]43C)[C@@H]2C1	MTT	23.34 µM
COc1ccc(CNc2cc(=O)n(O)c3ncccc23)cc1	-	0.09 µM
Nc1ccc2c(c1)CSSC2	MTT	177.9 µM
CCOC(=O)c1c(N)c2cccnc2n(O)c1=O	-	<100 µM
CCS(=O)(=O)c1ccc(Cc2ccc(Cl)c(Cl)c2)nc1C(N)=O	-	10 µg/mL
CCOC(=O)[C@@]1(C)CC[C@]2(C)CC[C@]3(C)C(=CC(=O)[C@@H]4[C@@]5(C)CC/C(=N\OCC6CCOCC6)C(C)(C)[C@@H]5CC[C@]43C)[C@@H]2C1	MTT	30.31 µM
C[C@@H](CN[C@H](CN[C@H](CN[C@H](CNCCC(N)=O)Cc1ccc(O)cc1)Cc1ccc(O)cc1)Cc1ccc(O)cc1)NC[C@H](Cc1ccc(O)cc1)NC[C@@H](N)Cc1ccc(O)cc1	MTS	>100 µM
CC(CCC=C(CO)CO)C1CC[C@@]2(C)[C@@H]3CC=C4[C@@H](CCC(O)C4(C)C)[C@]3(C)C(O)C[C@]12C	MTT	24.8 µM
C[C@@H]1CN(C(=O)c2ccccc2)CCN1C(=O)C(=O)c1c[nH]c2c(-c3nccs3)ncc(F)c12	trypan blue	≤100 µM
O=[N+]([O-])c1ccc2c(c1)CSSC2	MTT	40.8 µM
CC(C)C[C@H](NC(=O)OCc1ccccc1)C(=O)N[C@@H](Cc1ccccc1)C(=O)N[C@H](/C=C/C(=O)NC1CCCC1)CCC(N)=O	XTT	>100 µM
Cc1ccc(CNc2cc(=O)n(O)c3ncccc23)cc1	-	<100 µM
O=C(CCCCOc1ccc(C2=NCCO2)cc1)c1ccc[nH]1	-	>320 µM
CC1CN(C(=O)c2ccccc2)C(C)CN1C(=O)C(=O)c1c[nH]c2cccc(F)c12	XTT	>300 µM
O=c1cc(NC2CCc3ccccc32)c2cccnc2n1O	-	0.034 µM
CCOC(=O)[C@@]1(C)CC[C@]2(C)CC[C@]3(C)C(=CC(=O)[C@@H]4[C@@]5(C)CC/C(=N\OCc6cccc(C#N)c6)C(C)(C)[C@@H]5CC[C@]43C)[C@@H]2C1	MTT	>1000 µM

The first 9 rows once more:

compound | read by | value
CC1=C(C(=O)O)C(c2ccccc2)NC(=O)N1 | XTT | >100 µM
CCCCCCCCCC(C)=O | trypan blue | 42 µg/mL
CCOC(=O)[C@@]1(C)CC[C@]2(C)CC[C@]3(C)C(=CC(=O)[C@@H]4[C@@]5(C)CC/C(=N\OCc6ccccc6Br)C(C)(C)[C@@H]5CC[C@]43C)[C@@H]2C1 | MTT | 69.71 µM
COc1cnc(-n2nccn2)c2[nH]cc(C(=O)C(=O)N3CCN(C(=O)c4ccccc4)[C@H](C)C3)c12 | trypan blue | >100 µM
CCOC(=O)[C@@]1(C)CC[C@]2(C)CC[C@]3(C)C(=CC(=O)[C@@H]4[C@@]5(C)CC/C(=N\OCc6ccc(C(F)(F)F)cc6)C(C)(C)[C@@H]5CC[C@]43C)[C@@H]2C1 | MTT | >100 µM
C[C@@H](NC(=O)c1nc(-c2cccc(C(F)(F)F)n2)[nH]c(=O)c1O)C1CCCCC1 | luminescence | >50 µM
CC(=O)O[C@@H]1C[C@@]2(C)C3CC=C4[C@@H](C[C@H](O)[C@@H](O)C4(C)C)[C@]3(C)C(=O)C[C@]2(C)C1C(C)(O)C(=O)/C=C/C(C)(C)OC(C)=O | MTT | 1.2 µM
CC1CN(C(=O)C(=O)c2c[nH]c3cccc(F)c23)CC(C)N1C(=O)c1ccccc1 | XTT | 200 µM
CCOC(=O)[C@@]1(C)CC[C@]2(C)CC[C@]3(C)C(=CC(=O)[C@@H]4[C@@]5(C)CC/C(=N\OCc6c(C)noc6C)C(C)(C)[C@@H]5CC[C@]43C)[C@@H]2C1 | MTT | 12.27 µM